Earlier results, collected in US10794912B2 (priority 2017, dated 2020).

Details: 110° C. for 1 h

For `C[C@H]1CCCC(=O)CCC/C=C/c2cc(O)cc(O)c2C(=O)O1`, the heat resistance is listed as “can only be completely destroyed after being treated at 110 °C for 1 h”.
